Laboratory results: patent US20230304010A1, “COMPOSITIONS AND METHODS FOR TREATING VIRAL INFECTIONS” (priority 2020, published 2023)

Experiments:
ACE2, Q9BYF1 [1] = assay: SARS-CoV-2 Spike:ACE2 inhibitor screening kit (Example 4)
ACE2, Q9BYF1 [2] = assay: inhibitor screening kit; ACE2:SARS-CoV-2 Spike (Example 4 assay)
ACE2, Q9BYF1 [3] = assay: inhibitor screening kit; SARS-CoV-2 Spike:ACE2 (Example 3 assay)
ACE2, Q9BYF1 [4] = assay: ACE2:SARS-CoV-2 Spike kit, ACE2 on plate; competitor Spike Gamma (P1)-Fc
ACE2, Q9BYF1 [5] = assay: ACE2:SARS-CoV-2 Spike kit, ACE2 on plate; competitor Spike Alpha (B117)-Fc
ACE2, Q9BYF1 [6] = assay: ACE2:SARS-CoV-2 Spike kit, ACE2 on plate; competitor Spike Beta (B1312)-Fc
ACE2, Q9BYF1 [7] = assay: ACE2:SARS-CoV-2 Spike kit, ACE2 on plate; competitor Spike Delta (B1617)-Fc
ACE2, Q9BYF1 [8] = assay: ACE2:SARS-CoV-2 Spike kit, ACE2 on plate; competitor Spike Epsilon (B1429)-Fc

B1: Seq22 (LNCOV-14) (peptide)
peptide: TNGVGYQPYKLWRALWRLWRSLWRLLWK
modifications: not checked
ACE2, Q9BYF1 [1]
  fold less potent than Seq20/Seq21: 3.6 fold
ACE2, Q9BYF1 [2]
  IC50: 145 nM
ACE2, Q9BYF1 [3]
  IC50: > 1000 nM

B2: Seq17 (LNCOV-15) (peptide)
peptide: NGVEGFNKLWRALWRLWRSLWRLLWK
modifications: not checked
ACE2, Q9BYF1 [4]
  IC50: 87.2 nM
ACE2, Q9BYF1 [5]
  IC50: 136 nM
ACE2, Q9BYF1 [6]
  IC50: 75.2 nM
ACE2, Q9BYF1 [7]
  IC50: 48.2 nM
ACE2, Q9BYF1 [8]
  IC50: 94.7 nM

B3: Seq15 (LNCOV-22) (peptide)
peptide: GNYNYLYRLFKLWRALWRLWRSLWRLLWK
modifications: not checked
ACE2, Q9BYF1 [2]
  IC50: > 10000 nM
ACE2, Q9BYF1 [3]
  IC50: > 1000 nM

B4: Seq16 (LNCOV-17) (peptide)
peptide: TEYQAGSTKLWRALWRLWRSLWRLLWK
modifications: not checked
ACE2, Q9BYF1 [3]
  IC50: > 1000 nM
